Measured values from several laboratories, pooled; numbers as filed in NIAID ChemDB.

All rows: whole-cell or culture tests; species: Cryptococcus neoformans; measure: MIC80

Neighbouring rows are from separate reports. MIC50, MIC90 and the like: level of inhibition, or share of isolates inhibited. An empty or dashed field is not shown.

O=C1S/C(=C\c2cccnc2)C(=O)N1CC(O)(Cn1nccn1)c1ccc(F)cc1F ; result: 72.16 µg/mL
CCCC(=O)OC1CCN(CC(O)(Cn2cncn2)c2ccc(F)cc2F)CC1 ; strain or isolate: BLS108 ; read by: broth dilution ; result: 0.153 µM
OC(CN1CCN(c2ccc(OCc3ccncc3)cc2)CC1)(Cn1cncn1)c1ccc(F)cc1F ; strain or isolate: 95211 ; result: 0.5 µg/mL
C[C@@H](N1CCN(Cc2cn(Cc3ccc(F)cc3F)c3ccccc23)CC1)[C@](O)(Cn1cncn1)c1ccc(F)cc1F ; strain or isolate: ATCC 36556 ; read by: resazurin ; result: >128 µg/mL
CCCCCCCCCCCCC(=O)OC1CCN(CC(O)(Cn2cncn2)c2ccc(F)cc2F)CC1 ; strain or isolate: BLS108 ; read by: broth dilution ; result: 0.48 µM
C[C@@H](N1CCN(Cc2cn(Cc3cccc(C(F)(F)F)c3)c3c(F)cccc23)CC1)[C@](O)(Cn1cncn1)c1ccc(F)cc1F ; strain or isolate: ATCC 36556 ; read by: resazurin ; result: >128 µg/mL
O=C(/C=C/c1cccc(F)c1)OC1CCN(CC(O)(Cn2cncn2)c2ccc(F)cc2F)CC1 ; strain or isolate: BLS108 ; read by: broth dilution ; result: 0.129 µM
O=C1S/C(=C\c2cccs2)C(=O)N1CC(O)(Cn1nccn1)c1ccc(F)cc1F ; result: 8.92 µg/mL
O=C(/C=C/c1cccc([N+](=O)[O-])c1)OC1CCN(CC(O)(Cn2cncn2)c2ccc(F)cc2F)CC1 ; strain or isolate: BLS108 ; read by: broth dilution ; result: 0.122 µM
O=C1S/C(=C\c2ccc(F)cc2F)C(=O)N1CC(O)(Cn1nccn1)c1ccc(F)cc1F ; result: 8.36 µg/mL
C[C@@H](N1CCN(Cc2cn(Cc3cccc(C(F)(F)F)c3)c3ccccc23)CC1)[C@](O)(Cn1cncn1)c1ccc(F)cc1F ; strain or isolate: ATCC 36556 ; read by: resazurin ; result: >128 µg/mL
O=C(CCl)OC1CCN(CC(O)(Cn2cncn2)c2ccc(F)cc2F)CC1 ; strain or isolate: BLS108 ; read by: broth dilution ; result: 9.66 µM
C[C@@H](N1CCN(Cc2cn(Cc3ccc(F)cc3F)c3c(F)cccc23)CC1)[C@](O)(Cn1cncn1)c1ccc(F)cc1F ; strain or isolate: ATCC 36556 ; read by: resazurin ; result: >128 µg/mL
O=C(/C=C/c1ccccc1)OC1CCN(CC(O)(Cn2cncn2)c2ccc(F)cc2F)CC1 ; strain or isolate: BLS108 ; read by: broth dilution ; result: 0.033 µM
C[C@@H](N1CCN(Cc2cn(Cc3ccc(C(F)(F)F)cc3)c3c(F)cccc23)CC1)[C@](O)(Cn1cncn1)c1ccc(F)cc1F ; strain or isolate: ATCC 36556 ; read by: resazurin ; result: >128 µg/mL
O=C1S/C(=C\c2ccccc2Br)C(=O)N1CC(O)(Cn1nccn1)c1ccc(F)cc1F ; strain or isolate: CNCYP51 ; result: 30.69 µg/mL
Cn1nc(Cc2ccc(Cl)cc2)c2ccccc2c1=O ; strain or isolate: Clinical isolate (IM 031633) ; read by: broth dilution ; result: 7.8 µg/mL
C[C@@H](N1CCN(Cc2cn(Cc3ccc(C(F)(F)F)cc3)c3cc(Cl)ccc23)CC1)[C@](O)(Cn1cncn1)c1ccc(F)cc1F ; strain or isolate: ATCC 36556 ; read by: resazurin ; result: >128 µg/mL

2 of the rows above, restated:

SMILES	strain or isolate	read by	result
O=C1S/C(=C\c2ccc(F)cc2F)C(=O)N1CC(O)(Cn1nccn1)c1ccc(F)cc1F	-	-	8.36 µg/mL
C[C@@H](N1CCN(Cc2cn(Cc3ccc(F)cc3F)c3ccccc23)CC1)[C@](O)(Cn1cncn1)c1ccc(F)cc1F	ATCC 36556	resazurin	>128 µg/mL